Data: paper PMC3605390, “Characterisation of ATP-Dependent Mur Ligases Involved in the Biogenesis of Cell Wall Peptidoglycan in Mycobacterium tuberculosis” (PLoS ONE, 2013)

How the values were obtained:
Assay in all cases: purified protein
Settings in all cases: pH 8.5; 37.0 °C
[1] = tested on: Nc1ncnc2c1ncn2[C@@H]1O[C@H](COP(=O)(O)OP(=O)(O)OP(=O)(O)O)[C@@H](O)[C@H]1O
[2] = tested on: CC(=O)N[C@H]1[C@@H](OP(=O)(O)OP(=O)(O)OC[C@H]2O[C@@H](n3ccc(=O)[nH]c3=O)[C@H](O)[C@@H]2O)O[C@H](CO)[C@@H](O)[C@@H]1O[C@H](C)C(=O)N[C@@H](C)C(=O)O
N[C@H](CCC(=O)O)C(=O)O = tested on: N[C@H](CCC(=O)O)C(=O)O
[3] = tested on: CC(=O)N[C@H]1[C@@H](OP(=O)(O)OP(=O)(O)OC[C@H]2O[C@@H](n3ccc(=O)[nH]c3=O)[C@H](O)[C@@H]2O)O[C@H](CO)[C@@H](O)[C@@H]1O[C@H](C)C(=O)O
N[C@@H](CO)C(=O)O = tested on: N[C@@H](CO)C(=O)O
C[C@H](N)C(=O)O = tested on: C[C@H](N)C(=O)O
NCC(=O)O = tested on: NCC(=O)O

Substance	Km [1] [µM]	kcat/Km [1] [M⁻¹ s⁻¹]	Km [2] [µM]	kcat/Km [2] [M⁻¹ s⁻¹]	Km (N[C@H](CCC(=O)O)C(=O)O) [µM]	kcat/Km (N[C@H](CCC(=O)O)C(=O)O) [M⁻¹ s⁻¹]	Km [3] [µM]	kcat/Km [3] [M⁻¹ s⁻¹]	Km (N[C@@H](CO)C(=O)O) [µM]	kcat/Km (N[C@@H](CO)C(=O)O) [M⁻¹ s⁻¹]	Km (C[C@H](N)C(=O)O) [µM]	kcat/Km (C[C@H](N)C(=O)O) [M⁻¹ s⁻¹]	Km (NCC(=O)O) [µM]	kcat/Km (NCC(=O)O) [M⁻¹ s⁻¹]
MurF (Mycobacterium tuberculosis H37Rv)	92.3 ± 0.2	15300												
MurD (Mycobacterium tuberculosis H37Rv)	106.4 ± 0.1	7500	53.3 ± 0.1	15100	85.1 ± 0.2	9400								
MurC (Mycobacterium tuberculosis H37Rv)	67.7 ± 1.1	15100					23.5 ± 0.5	44800	99.7 ± 0.5	12500	43.0 ± 0.9	23900	146.5 ± 1.6	10500
